Test results as given in patent US20100104580A1, “Altered Immunogenic Landscape in HIV-1 Envelope Proteins” (priority 2008, published 2010).

Biological target: HIV-1YU2gp120 (HIV-1 YU2), P35961
Experiment: method not given

Row | Binder | Kd [nM]
1 | RINNIPWSEAMM (modifications not checked) [HNG-113] | 12
2 | RINNIPWSEAMM (modifications not checked) [HNG-124] | 9
